Laboratory results from patent US6881741B2 (ViroChem Pharma Inc., priority 2001, dated 2005).
Only a part of the results on these compounds is given; other tests are left out.

Protein sequences, listed by entry. Tags and fused reporters are not part of them. Residues count along the entry.
UniProt P26663, 2420-3010 limits assumed: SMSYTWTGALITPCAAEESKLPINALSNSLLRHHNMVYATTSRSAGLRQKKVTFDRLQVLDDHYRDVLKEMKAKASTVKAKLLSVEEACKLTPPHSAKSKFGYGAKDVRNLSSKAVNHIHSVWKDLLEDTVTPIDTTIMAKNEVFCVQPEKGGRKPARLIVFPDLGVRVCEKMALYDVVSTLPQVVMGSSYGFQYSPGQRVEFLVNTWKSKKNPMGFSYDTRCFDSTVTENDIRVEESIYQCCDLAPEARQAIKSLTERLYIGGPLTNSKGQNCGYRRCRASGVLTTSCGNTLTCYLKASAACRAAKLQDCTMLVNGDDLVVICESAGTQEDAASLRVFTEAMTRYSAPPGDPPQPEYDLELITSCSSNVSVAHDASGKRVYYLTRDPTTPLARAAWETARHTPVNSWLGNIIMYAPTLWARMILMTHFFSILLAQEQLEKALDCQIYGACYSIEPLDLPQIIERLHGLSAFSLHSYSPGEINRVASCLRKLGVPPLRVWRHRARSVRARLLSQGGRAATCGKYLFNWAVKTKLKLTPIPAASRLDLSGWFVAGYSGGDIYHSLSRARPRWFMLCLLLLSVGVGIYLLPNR

Molecular target: recombinant HCV NS5B (HCV RNA-dependent RNA polymerase) (Hepatitis C virus genotype 1b, UniProt P26663)
Test: In vitro HCV RdRp Flashplate scintillation proximity assay (STREP-FLASH ASSAY)
Assay type: biochemical
Conditions: read-out: IC50 (polymerase activity), list of compounds of Example 27

| Structure (SMILES) | IC50 |
| --- | --- |
| CN1CCC(N(C(=O)c2ccc(Cl)cc2Cl)c2cc(-c3ccccc3)sc2C(=O)O)CC1 | 5 to 20 µM |
| CC1CCC(C(=O)N(c2cc(-c3ccccc3)sc2C(=O)O)C2CCN(C)CC2)CC1 (centres unmarked) | < 5 µM |
